Test results taken from article doi:10.1101/2022.11.09.515855.
Construct, isoform or probe ends are uncertain for at least one entry.

Target: T1, Gac (C-terminal domain of GyrA, recombinant) (Borrelia burgdorferi B31) (UniProt O51396)
T1 sequence: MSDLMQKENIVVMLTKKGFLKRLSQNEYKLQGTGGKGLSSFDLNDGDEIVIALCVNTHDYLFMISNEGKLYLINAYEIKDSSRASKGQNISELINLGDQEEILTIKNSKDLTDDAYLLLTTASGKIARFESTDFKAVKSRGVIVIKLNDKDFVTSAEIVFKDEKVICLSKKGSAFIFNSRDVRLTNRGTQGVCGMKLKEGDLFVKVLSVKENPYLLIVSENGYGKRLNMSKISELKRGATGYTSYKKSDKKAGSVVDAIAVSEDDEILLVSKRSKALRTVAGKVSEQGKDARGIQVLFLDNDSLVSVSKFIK
Test: EMSA
Conditions: 10 nM probe, 25 nM Gac; probe letters rebuilt from the primers and the genome

“ATATATGGATCCTCCTTTTTATTTATGAATTATTAGTCCAACAATTTTGTTTTTCAATTTTTTATTTGAAAAAATAATTTTTTCAAATTCTTCAATATCTTGAATAAATATTGAAGAATTTGAAAAATATTGTCTTAATTTGATTTTAAAATCGACATAAGCAAAGCCAAATATGCGGTACCATATAT (double strand) [B31 ospC operator/promoter probe]”: binds.
